# Share of PSTVd loop 6 variants by leaf site

Values reported by Wu et al. 2024 (doi:10.1371/journal.ppat.1012142).

PSTVd intermediate strain, loop 6: wild type UGACCGCGAG, pool pattern UNNNCGNNNG; upper and lower strand joined, each 5' to 3', the first 5 letters being the upper strand, closing pairs included.

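Three N. benthamiana plants were inoculated with the whole mutant pool. Progeny were sequenced from the inoculated region (day 5), the margin of the inoculated leaf (day 10) and systemic leaves (day 12).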

Numbers give reads per thousand; 0 = not seen among the reads, higher = more abundant. Each site shows the three plants. "Pool" is the share in the plasmid pool used as inoculum, on the same scale. The inoculated region was read from the minus strand, the other sites from the plus strand. With 36,220-57,551 reads a sample, very low values are single reads. Wild type was 20.7 per thousand in the pool and the most common sequence in every sample (inoculated region 195, 198, 203; leaf margin 629, 591, 734; systemic leaves 942, 870, 868). Sequences that differ at fixed positions probably stem from PCR or sequencing errors, and defective variants can be carried along by functional ones.

sequence	pool	inoculated region	leaf margin	systemic leaves
AAGGCGCGAG	0.0131	0 / 0 / 0	0 / 0 / 0	0 / 0 / 0
AGACCGCGAG	0.0131	0.0174 / 0.144 / 0.111	0.0552 / 1.69 / 0	0.216 / 0.707 / 0.451
CCGGCGGGAG	0.0131	0 / 0 / 0	0 / 0 / 0	0 / 0 / 0
CCUCGGCAUG	0.0131	0 / 0 / 0	0 / 0 / 0	0 / 0 / 0
CGACCGACAG	0.0131	0.782 / 0.305 / 0.387	0.0828 / 0.101 / 0.0232	0 / 0 / 0
CGACCGACCG	0.0131	0 / 0.0359 / 0.0553	0.0276 / 0 / 0	0 / 0 / 0
CGACCGAGAG	0.0261	0.660 / 4.02 / 5.66	1.24 / 1.08 / 0.835	0.270 / 0.667 / 0.472
CGACCGAGCG	0.0131	0.0174 / 0 / 0.0184	0 / 0 / 0	0 / 0 / 0
CGACCGAGUG	0.0131	0.799 / 0.395 / 0.369	0.0828 / 0.177 / 0.0464	0 / 0 / 0
CGACCGCCUG	0.0131	0.573 / 0.772 / 0.332	0.110 / 0.151 / 0	0 / 0 / 0
CGACCGCGAG	0.0261	0.243 / 0.0180 / 0.0922	0.276 / 0.504 / 0.278	0.359 / 0.424 / 0.615
CGACCGCUAG	0.0261	0.660 / 4.28 / 6.09	1.13 / 1.14 / 0.928	0.252 / 0.768 / 0.554
CGACCGGCCG	0.0131	0.0348 / 0.0359 / 0	0 / 0 / 0	0 / 0 / 0
CGACCGGGAG	0.0131	0.712 / 0.593 / 0.350	0.0828 / 0.101 / 0.162	0 / 0 / 0
CGACCGGUAG	0.0131	0.0174 / 0 / 0	0.0276 / 0 / 0	0 / 0 / 0
CGACCGGUCG	0.0131	0 / 0.0180 / 0.0369	0 / 0 / 0	0 / 0 / 0
CGACCGUUAG	0.0131	0.712 / 0.413 / 0.461	0.0828 / 0.177 / 0.0696	0 / 0 / 0
CGACCGUUCG	0.0131	0 / 0.0359 / 0	0 / 0 / 0	0 / 0 / 0
CGACCGUUGG	0.0131	0.0174 / 0 / 0.0184	0 / 0 / 0.0232	0 / 0 / 0
CUCGCGUUUG	0.0131	0 / 0 / 0	0 / 0 / 0	0 / 0 / 0
CUUCCGAUUG	0.0131	0 / 0 / 0	0 / 0 / 0	0 / 0 / 0
GGACCGAAAG	0.0131	0.608 / 0.754 / 0.295	0 / 0.0757 / 0.0696	0 / 0 / 0.0410
GGACCGAACG	0.0131	0 / 0.0359 / 0.0369	0 / 0 / 0	0 / 0 / 0
GGACCGACCG	0.0131	0.0174 / 0 / 0.0369	0 / 0 / 0	0 / 0 / 0
GGACCGACGG	0.0131	0.0174 / 0.0539 / 0	0 / 0 / 0.0464	0 / 0 / 0
GGACCGACUG	0.0131	0.0348 / 0.0359 / 0	0 / 0 / 0	0 / 0 / 0
GGACCGAGAG	0.0131	0.591 / 0.683 / 0.719	0.166 / 0.0757 / 0.0696	0.0180 / 0 / 0.0205
GGACCGAGCG	0.0261	0.0174 / 0 / 0.0184	0 / 0 / 0	0 / 0 / 0
GGACCGAUAG	0.0131	0.0348 / 0.0180 / 0.0184	0.0276 / 0 / 0.0696	0 / 0 / 0
GGACCGAUCG	0.0261	0 / 0.0539 / 0.0553	0 / 0.0252 / 0	0 / 0 / 0
GGACCGAUGG	0.0131	0.0348 / 0.0359 / 0	0 / 0 / 0	0 / 0 / 0
GGACCGCAAG	0.0131	0.817 / 0.701 / 0.406	0.0276 / 0.0504 / 0.0232	0.0180 / 0.0808 / 0.0410
GGACCGCACG	0.0131	0.0174 / 0 / 0	0 / 0 / 0	0 / 0 / 0
GGACCGCCCG	0.0131	0.0174 / 0 / 0.0184	0 / 0 / 0	0 / 0 / 0.0205
GGACCGCCGG	0.0131	0.0348 / 0.0180 / 0.0184	0 / 0 / 0	0 / 0 / 0

The first 3 entries again:

With AAGGCGCGAG (pool 0.0131) the assay gave inoculated region 0 / 0 / 0; leaf margin 0 / 0 / 0; systemic leaves 0 / 0 / 0.
With AGACCGCGAG (pool 0.0131) the assay gave inoculated region 0.0174 / 0.144 / 0.111; leaf margin 0.0552 / 1.69 / 0; systemic leaves 0.216 / 0.707 / 0.451.
With CCGGCGGGAG (pool 0.0131) the assay gave inoculated region 0 / 0 / 0; leaf margin 0 / 0 / 0; systemic leaves 0 / 0 / 0.